The entries are a selection whose mix differs from that of the whole data set. The source holds several records for some structures; these can differ, active in one and inactive in another. Calls of active or inactive are those of the source. Rule as the data show it: active = growth inhibition above about 70%; inactive = the rest.
How the values were obtained:
[1] = NCI Yeast Anticancer Drug Screen. Data for the cln2 rad14 strain (AID 165);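 also: 0% = growth equal to vehicle treated cultures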; conditions: S. cerevisiae cln2 rad14 strain, active compounds read high
[2] = NCI Yeast Anticancer Drug Screen. Data for the bub3 strain (AID 167); conditions: S. cerevisiae bub3 mutant strain, active compounds read high
[3] = NCI Yeast Anticancer Drug Screen. Data for the mlh1 rad18 strain (AID 175); conditions: S. cerevisiae mlh1 rad18 strain growth inhibition, active compounds read high
[4] = at 5.0 µM (retest, dose inferred, filed as 0.5)
[5] = at 50.0 µM (retest, dose inferred, filed as 5.0)

Measured: growth inhibition

NP(=O)(O)N(CCCl)CCCl
inactive: [1]; [4] 2% | [1]; at 50.0 µM 26.3% | [2]; [4] 1% | [2]; [5] 44% | [2]; at 50.0 µM 51.3% | [3]; [4] -2% | [3]; [5] 30% | [3]; at 50.0 µM 18.2%
